Holding throughout (assay): BLI
What all share (conditions): both partners purified

For one assay, the target named is T1, fHbp m001691 (Neisseria meningitidis; fHbp …, point mutant).
T1 chain: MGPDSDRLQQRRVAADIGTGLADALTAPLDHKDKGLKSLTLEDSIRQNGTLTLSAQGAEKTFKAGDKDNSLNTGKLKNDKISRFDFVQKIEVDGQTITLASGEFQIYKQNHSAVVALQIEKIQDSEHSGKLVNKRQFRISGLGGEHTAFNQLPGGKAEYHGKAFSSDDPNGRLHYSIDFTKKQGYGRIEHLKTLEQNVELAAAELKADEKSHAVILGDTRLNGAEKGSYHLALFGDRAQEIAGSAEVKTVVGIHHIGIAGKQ

For a further assay, the target named is T2, fHbp m001929 (Neisseria meningitidis; fHbp …, chimera).
T2 chain: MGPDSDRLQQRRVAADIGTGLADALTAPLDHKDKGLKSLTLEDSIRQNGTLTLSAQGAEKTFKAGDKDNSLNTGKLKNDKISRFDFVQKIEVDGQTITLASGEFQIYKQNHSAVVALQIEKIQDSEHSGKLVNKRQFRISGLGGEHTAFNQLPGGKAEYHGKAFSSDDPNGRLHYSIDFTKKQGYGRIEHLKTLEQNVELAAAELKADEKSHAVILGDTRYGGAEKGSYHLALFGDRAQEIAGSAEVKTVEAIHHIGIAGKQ

In the next assay the target is T3, fHbp m001935 (Neisseria meningitidis; fHbp …, chimera).
T3 chain: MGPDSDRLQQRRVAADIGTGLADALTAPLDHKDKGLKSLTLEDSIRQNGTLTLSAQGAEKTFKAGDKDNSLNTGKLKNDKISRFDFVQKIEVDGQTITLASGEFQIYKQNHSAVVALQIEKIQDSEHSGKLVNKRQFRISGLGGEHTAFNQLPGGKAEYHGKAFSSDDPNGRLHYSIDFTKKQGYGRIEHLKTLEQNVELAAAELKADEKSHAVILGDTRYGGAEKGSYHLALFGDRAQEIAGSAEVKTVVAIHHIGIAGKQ

The next assay deals with T4, fHbp m002335 (Neisseria meningitidis; fHbp …, chimera).
T4 chain: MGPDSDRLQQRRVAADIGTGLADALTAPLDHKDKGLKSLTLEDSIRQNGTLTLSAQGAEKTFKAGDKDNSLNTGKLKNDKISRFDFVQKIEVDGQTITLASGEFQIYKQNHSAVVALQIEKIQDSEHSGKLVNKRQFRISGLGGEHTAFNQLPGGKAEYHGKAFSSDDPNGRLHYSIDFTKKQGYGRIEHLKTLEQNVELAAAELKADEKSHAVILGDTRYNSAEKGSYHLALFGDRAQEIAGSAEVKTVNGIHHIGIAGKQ

In another assay the target is T5, fHbp m002389 (Neisseria meningitidis; fHbp …, chimera).
T5 chain: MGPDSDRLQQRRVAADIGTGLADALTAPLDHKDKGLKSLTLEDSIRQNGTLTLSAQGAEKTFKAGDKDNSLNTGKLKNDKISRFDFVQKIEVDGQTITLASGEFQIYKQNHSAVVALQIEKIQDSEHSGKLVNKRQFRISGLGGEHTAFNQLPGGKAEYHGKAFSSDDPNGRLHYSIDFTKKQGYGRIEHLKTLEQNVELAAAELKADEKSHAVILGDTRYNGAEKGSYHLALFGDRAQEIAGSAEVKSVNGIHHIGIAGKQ

The target of a further assay is T6, fHbp m002413 (Neisseria meningitidis, designed fHbp …, chimera).
T6 chain: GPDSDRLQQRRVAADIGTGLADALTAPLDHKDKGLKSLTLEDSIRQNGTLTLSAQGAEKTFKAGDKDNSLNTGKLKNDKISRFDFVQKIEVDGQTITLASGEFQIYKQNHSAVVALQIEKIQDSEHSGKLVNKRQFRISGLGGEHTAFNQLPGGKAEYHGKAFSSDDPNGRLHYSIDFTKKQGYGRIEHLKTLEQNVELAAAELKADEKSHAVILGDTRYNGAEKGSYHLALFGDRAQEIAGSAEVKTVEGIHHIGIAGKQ

In the next assay the target is T7, fHbp m002415 (Neisseria meningitidis, designed fHbp …, chimera).
T7 chain: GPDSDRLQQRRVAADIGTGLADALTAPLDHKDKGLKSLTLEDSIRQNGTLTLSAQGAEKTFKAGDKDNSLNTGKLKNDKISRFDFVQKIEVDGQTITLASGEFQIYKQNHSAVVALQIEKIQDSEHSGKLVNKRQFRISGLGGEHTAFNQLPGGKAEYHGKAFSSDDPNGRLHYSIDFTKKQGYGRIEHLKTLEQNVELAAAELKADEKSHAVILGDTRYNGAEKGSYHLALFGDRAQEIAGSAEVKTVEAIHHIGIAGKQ

For the next assay, the target named is T8, fHbp m002416 (Neisseria meningitidis, designed fHbp …, chimera).
T8 construct: also called fHbp 2,416; Round 2 best mutant
T8 chain: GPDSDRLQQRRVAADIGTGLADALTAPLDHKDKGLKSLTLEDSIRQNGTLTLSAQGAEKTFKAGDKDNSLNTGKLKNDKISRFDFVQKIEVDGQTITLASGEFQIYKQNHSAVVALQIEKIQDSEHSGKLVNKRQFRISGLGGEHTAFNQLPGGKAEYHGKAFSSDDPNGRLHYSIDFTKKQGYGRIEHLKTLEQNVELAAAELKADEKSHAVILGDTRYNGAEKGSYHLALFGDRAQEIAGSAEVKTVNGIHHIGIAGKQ

The target in the next assay is T9, fHbp m002421 (Neisseria meningitidis, designed fHbp …, point mutant).
T9 chain: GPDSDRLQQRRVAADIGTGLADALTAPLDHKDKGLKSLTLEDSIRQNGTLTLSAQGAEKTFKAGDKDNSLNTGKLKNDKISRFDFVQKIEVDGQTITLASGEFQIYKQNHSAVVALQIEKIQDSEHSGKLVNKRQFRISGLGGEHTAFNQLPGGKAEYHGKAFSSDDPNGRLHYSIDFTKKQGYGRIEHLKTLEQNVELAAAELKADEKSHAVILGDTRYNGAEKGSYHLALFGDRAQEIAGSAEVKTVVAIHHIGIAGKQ

Among the data in publication PMC12319226 (Frontiers in Bioinformatics, 2025) are koff and kon values, retold here.

B1: chimeric antibody hJAR5 (antibody, V domains shown)
VH: QVQMQQPGAELVKPGASVKLSCKASGYTFISYWMHWVKQRPGRGLEWIGRIAPDTGIIYYNEKFKNKATLTVDTPSSTAYMQLNSLTSEDSAVYYCARYLKYDGSTYRFDYWGQGTTLTVSS
VL: DIVMTQAAPSVPVTPGESVSISCRSSKSLLHSNGNTYLFWFLQRPGQSPQLLIYRMSNLASGVPDRFSGSGSGTSFTLRISRVEAEDVGVYYCMQHLEYPYTFGGGTKLEIK
notes: also called hJAR5-2; humanized JAR5; source: Expi293, purified (MabSelect SuRe, SEC); copies: 2 + 2
For orientation: koff means a measure of how fast the partners let go of each other. Low values mean slow dissociation, high ones fast dissociation. By kon is commonly meant the rate constant with which the complex forms. On to B1, for which the koff with fHbp m001691 was determined as 0.000302 s⁻¹; in the assay with fHbp m001929 it was 0.000105 s⁻¹; with fHbp m002335 it was 0.000316 s⁻¹; with fHbp m002389, 0.000357 s⁻¹; with fHbp m002413, 0.000487 s⁻¹; in the assay with fHbp m002421, 0.00024 s⁻¹. For the same molecule, the kon with fHbp m001691 was 360100 ± 2370 M⁻¹ s⁻¹; with fHbp m001935 it was 556800 ± 3250 M⁻¹ s⁻¹; with fHbp m002389, 462400 ± 1740 M⁻¹ s⁻¹; in the assay with fHbp m002413, 446800 ± 1750 M⁻¹ s⁻¹; in the assay with fHbp m002415, 393200 ± 1960 M⁻¹ s⁻¹; in the assay with fHbp m002416, 440100 ± 3820 M⁻¹ s⁻¹.
